Values quoted from earlier work, collected in patent publication US5565200A, “Pharmaceutical preparations derived from korean mistletoe” (priority 1995, dated 1996).

Test system: AIDS
Details: purified IL-2, cited from earlier work

Substance: IL-2: Purified IL-2 which stimulates the production of CD4 cells
- CD4 count of AIDS patients (AIDS patients): improve CD4 count of AIDS patients
- side effects (symptoms similar to acute influenza): serious side effects which have symptoms similar to acute influenza
